{"source": "patent US9540389B2", "about": "“Antimicrobial potentiators” (priority 2013, dated 2017)", "key": {"[1]": {"system": "Escherichia coli 285 (AB1157, CIPR, overexpresses efflux)", "conditions": "MIC (WT)/MIC (mutant) in the absence of EPI"}, "[2]": {"system": "Escherichia coli 287 (AB1157, CIPR, overexpresses efflux)", "conditions": "MIC (WT)/MIC (mutant) in the absence of EPI"}}, "data": [{"molecule": "CO/N=C(\\C(=O)N[C@@H]1C(=O)N2C(C(=O)O)=C(COC(C)=O)CS[C@H]12)c1csc(N)n1", "note": "[CEF, cefotaxime]", "values": [{"measurement": "MIC ratios mutant", "setting": "[1]", "value": 0.25}, {"measurement": "MIC ratios mutant", "setting": "[2]", "value": 0.25}]}]}
